Pooled drug test results. Numbers come from NIAID ChemDB, via PubChem.

All rows: tests in culture; organism: HIV-1; cells: MT-4; read-out: EC50

An empty or dashed field is not shown. Lines come from different laboratories, so protocols vary. ECn is the concentration giving n% inhibition of infection, replication or growth.

SMILES	strain or isolate	mutations	method	result
Cc1c(C(C)(C)C)s/c(=N\S(=O)(=O)c2ccccc2O)n1C	IIIB	-	cytopathic effect / MTT	2.3 µM
Cc1cc(C)c(Oc2cc(Nc3ccc(C#N)cc3)ncc2C(=O)NCc2cn(Cc3cccc([N+](=O)[O-])c3)nn2)c(C)c1	IIIB	WT	MTT	0.077 µM
O=S(=O)(O)OC1C(OS(=O)(=O)O)C(OS(=O)(=O)O)C(OS(=O)(=O)O)C(OS(=O)(=O)O)C1OS(=O)(=O)O	NL4-3	GP120-R302S	cytopathic effect / MTT	>250 µg/mL
C[C@H]1[C@@H]2O[C@]3(NC(=O)OC(C)(C)C)[C@@H](C)[C@H]1O[C@H]2[C@@H]3I	NL4-3	-	MTT	>63 µM
Cc1cn([C@H]2C[C@H](N=[N+]=[N-])[C@@H](CO)O2)c(=O)[nH]c1=O	-	-	cytopathic effect / MTT	0.0022 µg/mL
CCN(C)C(=O)Oc1nsnc1-c1c(Cl)cccc1Cl	IIIB	-	cytopathic effect / MTT	0.037 µM
O=c1[nH]c(=O)n(COCc2ccccc2)c2c1Nc1ccccc1S2	-	-	cytopathic effect / MTT	>23 µg/mL
CNC(=O)[C@@H](NC(=O)[C@H](OCc1ccc(-c2ccsc2)cc1)[C@H](O)[C@@H](O)[C@@H](OCc1ccc(-c2ccsc2)cc1)C(=O)N[C@H](C(=O)NC)C(C)C)C(C)C	-	-	cytopathic effect	0.04 µM
CCN1C2C(S(=O)(=O)c3ccc(C)cc3)=NCN2c2ccccc2S1(=O)=O	IIIB	-	cytopathic effect / MTT	≥200 µM
CC(C)=CCN1Cc2cc(Cl)cc3[nH]c(=S)n(c23)C[C@@H]1C	-	RT-L74V L100I	-	<3 µM
C[C@@H]1[C@@H]2O[C@]3(NC(=O)OC(C)(C)C)[C@@H](C)[C@H]1O[C@H]2[C@@H]3Br	NL4-3	-	MTT	>72 µM
CCCCN(CC)C(=O)Oc1nsnc1-c1c(Cl)cccc1Cl	IIIB	-	cytopathic effect / MTT	0.33 µM
C[C@H]1[C@H](O)[C@H](C)[C@@]2(NC(=O)OC(C)(C)C)O[C@@H]1[C@@H]1O[C@@H]12	NL4-3	-	MTT	>440 µM
CNC(=O)[C@@H](NC(=O)[C@H](OCc1ccccc1)[C@@H](O)[C@H](O)[C@@H](OCc1ccccc1)C(=O)N[C@H](C(=O)NC)C(C)C)C(C)C	-	-	cytopathic effect	22.9 µM
Cc1cn([C@H]2CC[C@@H](CO)O2)c(=O)[nH]c1=O	IIIB	-	RT activity	4.1 µM
CONC(=O)c1cn(Cc2ccncc2)c(Sc2cc(Cl)cc(Cl)c2)c1C(C)C	IIIB	-	cytopathic effect / MTT	0.4 µM
Cc1c(C(C)C)s/c(=N\S(=O)(=O)c2cc(Br)ccc2C#N)n1C	IIIB	-	cytopathic effect / MTT	0.0021 µM
CNC(=O)[C@@H](NC(=O)[C@@H](C[C@@H](O)[C@@H](OCc1ccccc1)C(=O)N[C@H](C(=O)NC)C(C)C)OCc1ccccc1)C(C)C	-	-	cytopathic effect	1.08 µM
CN(C)C(=O)Oc1nsnc1-c1ccccc1	IIIB	-	cytopathic effect / MTT	29 µM
C[C@H](CCC(=O)O)[C@H]1CC[C@H]2[C@@H]3[C@H](O)C[C@@H]4C[C@H](OS(=O)(=O)O)CC[C@]4(C)[C@H]3C[C@H](O)[C@]12C	IIIB	-	cytopathic effect / MTT	>500 µg/mL
OCc1cn(Cc2ccncc2)c(Sc2cc(Cl)cc(Cl)c2)c1C1CC1	IIIB	-	cytopathic effect / MTT	0.2 µM
O=c1[nH]c(=O)n(COCCO)c2c1Nc1ccccc1S2	-	-	cytopathic effect / MTT	23 µg/mL
COc1ccccc1S(=O)(=O)/N=c1\sc(C(C)(C)C)c(C)n1C	IIIB	-	cytopathic effect / MTT	10 µM
C/C(=N\O)c1cccc(CN2[C@H](COc3ccccc3)[C@H](O)[C@@H](O)[C@@H](COc3ccccc3)N(Cc3cccc(/C(C)=N/O)c3)S2(=O)=O)c1	-	-	cytopathic effect	2.9 µM
CC(C)c1s/c(=N\S(=O)(=O)c2cc(C#N)ccc2C#N)n(C)c1Cl	IIIB	-	cytopathic effect / MTT	0.0036 µM
CCOC(=O)c1c[nH]c(Sc2cc(Cl)cc(Cl)c2)c1C(C)C	IIIB	-	cytopathic effect / MTT	17 µM
COC(=O)N[C@H](C(=O)N[C@@H](Cc1ccccc1)[C@@H](O)CN(Cc1ccc(-c2ccccn2)cc1)NC(=O)[C@@H](NC(=O)OC)C(C)(C)C)C(C)(C)C	NL4-3	-	p24 / luminescence	0.0042 µM
O=S1(=O)N=Cc2cccn2-c2ccc(Cl)cc21	IIIB	-	cytopathic effect / MTT	>7.1 µM
CC(C)c1c(C(=O)c2ccccc2)cn(Cc2ccncc2)c1Sc1cc(Cl)cc(Cl)c1	IIIB	-	cytopathic effect / MTT	12 µM
CCN(CC)C(=O)Oc1nsnc1-c1c(Cl)cccc1Cl	IIIB-R (RT-Y181C)	RT-Y181C	cytopathic effect / MTT	9.4 µM
Cc1cn([C@H]2C[C@H](N=[N+]=[N-])[C@@H](CO)O2)c(=O)[nH]c1=O	NL4-3	-	p24 / luciferase	0.26 µg/mL
C[C@H](CCC(=O)O)[C@H]1CC[C@H]2[C@@H]3[C@H](OS(=O)(=O)O)C[C@@H]4C[C@H](OS(=O)(=O)O)CC[C@]4(C)[C@H]3C[C@H](OS(=O)(=O)O)[C@]12C	IIIB	-	cytopathic effect / MTT	214 µg/mL
CC(C)(C)NC(=O)c1ccccc1NC[C@@H](O)[C@H](Cc1ccccc1)NC(=O)[C@H](CC(N)=O)NC(=O)OCc1ccccc1	-	-	cytopathic effect	3.31 µM
C[C@H](CCC(=O)O)[C@H]1CC[C@H]2C3[C@H](OS(=O)(=O)O)C[C@@H]4C[C@H](O)CC[C@]4(C)[C@H]3CC[C@]12C	IIIB	-	cytopathic effect / MTT	>307 µg/mL
Cc1nc(COc2ccc(C[C@H](NC(=O)O[C@H]3CO[C@H]4OCC[C@H]43)[C@H](O)CN(CC(C)C)S(=O)(=O)c3ccc4c(c3)OCO4)cc2)cs1	HXB2 WT	-	-	<0.00085 µM
Cc1ccnc2c1NC(=O)c1cccnc1N2C1CC1	IIIB-R (RT-Y181C)	RT-Y181C	cytopathic effect / MTT	>235 µM
CNC(=O)[C@H](Cc1ccc(O)cc1)NC(=O)[C@H](OCc1ccccc1)[C@H](O)[C@@H](O)[C@@H](OCc1ccccc1)C(=O)N[C@@H](Cc1ccc(O)cc1)C(=O)NC	-	-	cytopathic effect	>67 µM
CC(C)c1c(COC(N)=O)cn(Cc2ccncc2)c1Sc1cc(Cl)cc(Cl)c1	IIIB	-	cytopathic effect / MTT	0.12 µM
COc1cccc(S(=O)(=O)/N=c2\sc(C(C)(C)C)c(C)n2C)c1	IIIB	-	cytopathic effect / MTT	11 µM
CC(C)CN(C[C@@H](O)[C@H](Cc1ccccc1)NC(=O)O[C@H]1CCOC1)S(=O)(=O)c1ccc(N)cc1	HXB2 WT	-	-	0.052 µM
O=C1c2cccn2-c2ccc(Cl)cc2S(=O)(=O)N1C/C=C/c1ccccc1	IIIB	-	cytopathic effect / MTT	10 µM
C[C@@H]1[C@H](O)[C@H](C)[C@@]2(NC(=O)OC(C)(C)C)O[C@@H]1[C@@H]1O[C@@H]12	NL4-3	-	MTT	>440 µM
O=c1[nH]cnc2c1ncn2[C@H]1CC[C@@H](CO)O1	IIIB	-	RT activity	8.4 µM
O=C(NC(=S)Nc1ccc(Br)cn1)c1ccccc1[N+](=O)[O-]	NL4-3	-	p24 / luciferase	0.12 µM
C[C@H]1[C@@H]2O[C@]3(NC(=O)OC(C)(C)C)[C@@H](C)[C@H]1O[C@H]2[C@@H]3O	NL4-3	-	MTT	>88 µM
COc1ccc(S(=O)(=O)N(CC(C)C)C[C@@H](O)[C@H](Cc2ccccc2)NC(=O)O[C@H]2CO[C@@H]3O[C@H]4OCC[C@H]4[C@@H]32)cc1	NL4-3	-	p24 / luminescence	0.3563 µM
CC(C)[C@H](NC(=O)N(C)Cc1ccccn1)C(=O)N[C@@H](Cc1ccccc1)C[C@H](O)[C@H](Cc1ccccc1)NC(=O)[C@@H](NC(=O)N(C)Cc1ccccn1)C(C)C	-	-	cytopathic effect / MTT	0.16 µM
Nc1ccn([C@H]2CC[C@@H](CO)O2)c(=O)n1	Clinical isolate 263	-	RT activity	0.35 µM
CNC(=O)[C@@H](NC(=O)[C@H](OCc1ccc(-c2ccccn2)cc1)[C@H](O)[C@@H](O)[C@@H](OCc1ccc(-c2ccccn2)cc1)C(=O)N[C@H](C(=O)NC)C(C)C)C(C)C	-	-	cytopathic effect	0.64 µM
Cc1cn([C@H]2C[C@H](N=[N+]=[N-])[C@@H](CO)O2)c(=O)[nH]c1=O	KK-39-5	-	cytopathic effect	>1 µg/mL
CNC(=O)c1cccc(CN2[C@H](COc3ccccc3)[C@H](O)[C@@H](O)[C@@H](COc3ccccc3)N(Cc3ccccc3)S2(=O)=O)c1	-	-	cytopathic effect	>79 µM
CC(C)c1c(CO)cn(Cc2ccncc2)c1Sc1ccccc1	IIIB	-	cytopathic effect / MTT	0.1 µM
Cc1cn([C@H]2C[C@H](N=[N+]=[N-])[C@@H](CO)O2)c(=O)[nH]c1=O	HXB2 WT	-	-	0.0147 µM
CC(C)CN(C[C@@H](O)[C@H](Cc1ccccc1)NC(=O)O[C@H]1CCOC1)S(=O)(=O)c1ccc(N)cc1	NL4-3	L10F V32I M46I I54M A71V I84V	p24 / luminescence	>1 µM
CCCCNC(=O)Oc1nsnc1-c1c(Cl)cccc1Cl	IIIB	-	cytopathic effect / MTT	>139 µM
CC(C)N1C(=O)c2cccn2-c2ccc(Cl)cc2S1(=O)=O	IIIB	-	cytopathic effect / MTT	3.8 µM
CN(C)C(=O)Oc1nsnc1-c1cc(Cl)ccc1Cl	IIIB	-	cytopathic effect / MTT	0.37 µM
C[C@@H]1[C@H](O)[C@H](C)[C@@]2(NC(=O)OC(C)(C)C)O[C@@H]1[C@H]1O[C@H]12	NL4-3	-	MTT	>440 µM
CN(C)C(=O)Oc1nsnc1-c1cccc(Cl)c1Cl	IIIB-R (RT-Y181C)	RT-Y181C	cytopathic effect / MTT	>127 µM
CC(C)[C@H](NC(=O)N(C)Cc1ccccn1)C(=O)N[C@@H](Cc1ccccc1)[C@H](O)[C@@H](O)[C@H](Cc1ccccc1)NC(=O)[C@@H](NC(=O)N(C)Cc1ccccn1)C(C)C	IIIB	-	cytopathic effect / MTT	0.17 µM

The first 7 rows once more:

SMILES,strain or isolate,mutations,method,result
Cc1c(C(C)(C)C)s/c(=N\S(=O)(=O)c2ccccc2O)n1C,IIIB,-,cytopathic effect / MTT,2.3 µM
Cc1cc(C)c(Oc2cc(Nc3ccc(C#N)cc3)ncc2C(=O)NCc2cn(Cc3cccc([N+](=O)[O-])c3)nn2)c(C)c1,IIIB,WT,MTT,0.077 µM
O=S(=O)(O)OC1C(OS(=O)(=O)O)C(OS(=O)(=O)O)C(OS(=O)(=O)O)C(OS(=O)(=O)O)C1OS(=O)(=O)O,NL4-3,GP120-R302S,cytopathic effect / MTT,>250 µg/mL
C[C@H]1[C@@H]2O[C@]3(NC(=O)OC(C)(C)C)[C@@H](C)[C@H]1O[C@H]2[C@@H]3I,NL4-3,-,MTT,>63 µM
Cc1cn([C@H]2C[C@H](N=[N+]=[N-])[C@@H](CO)O2)c(=O)[nH]c1=O,-,-,cytopathic effect / MTT,0.0022 µg/mL
CCN(C)C(=O)Oc1nsnc1-c1c(Cl)cccc1Cl,IIIB,-,cytopathic effect / MTT,0.037 µM
O=c1[nH]c(=O)n(COCc2ccccc2)c2c1Nc1ccccc1S2,-,-,cytopathic effect / MTT,>23 µg/mL